Data reported in patent publication US20100324034A1 (priority 2007, published 2010).

Tests used:
[1] = test system: resting CD4+ T cells from aviremic, ART-treated HIV+ patients; assay: limiting-dilution outgrowth assay, HIV detected by p24 antigen capture ELISA; type: cell-based, human; conditions: for Infected resting cells per billion after exposure to: VPA 40 μM, SAHA 250 nM, PHA/allo
[2] = test system: J89, a Jurkat T cell line infected with a single HIV genome encoding EGFP; assay: J89 cell line: chromatin immunoprecipitation at nucleosome 1, EGFP mRNA RT-PCR, p24 ELISA

In the case of “N-Hydroxy-N′-phenyl octanediamide [SAHA]”, the “Infected resting cells per billion after exposure to” value (“Infected resting cells per billion” for short) ([1]; Patient A1) is reported as 410 per billion, the “Infected resting cells per billion” value ([1]; Patient A2) is reported as 561 per billion and the “Infected resting cells per billion” value ([1]; Patient B) is reported as 1,927 per billion. For the same substance, the “Infected resting cells per billion” value ([1]; Patient C) was less than 31 per billion, the “virus outgrowth ex vivo from patients' cells” value ([1]; summary in words) was “efficiently induced” and the HIV transcription [2] was “efficiently induced”. For the same substance, the “chromatin remodeling at nucleosome 1” value [2] was “efficiently induced” and the virus production [2] was “efficiently induced”.
